Reference: US9974771B2 (priority 2016, dated 2018)

How the values were obtained:
PrP^Sc in ScN2a cells = test: Long-term (20 days) treatment and drug withdrawal, PrP^Sc immunoblot, ScN2a cells; conditions: 20 days (five passages), then 20 days without drug, FIG. 6A
[1] = test system: PrP^Sc in ScMEF cells (prion strain Me7); test: Long-term (20 days) treatment and drug withdrawal, PrP^Sc immunoblot, ScMEF cells; conditions: 20 days (five passages), then 20 days without drug, FIG. 6C

| Compound | PrP^Sc signal during long-term treatment and after withdrawal (PrP^Sc in ScN2a cells; AR-12 3 μM) | PrP^Sc signal during long-term treatment and after withdrawal ([1]; AR-12 3 μM) | PrP^Sc signal during long-term treatment and after withdrawal (PrP^Sc in ScN2a cells; AR-14 2 μM) | PrP^Sc signal during long-term treatment and after withdrawal ([1]; AR-14 2 μM) |
| --- | --- | --- | --- | --- |
| NCC(=O)Nc1ccc(-n2nc(C(F)(F)F)cc2-c2ccc3c(ccc4ccccc43)c2)cc1 [AR-12, 2-amino-N-(4-(5-(phenanthren-2-yl)-3-(trifluoromethyl)-1H-pyrazol-1-yl)phenyl)acetamide] | completely disappeared during drug treatment and did not reappear after drug withdrawal | completely disappeared during drug treatment and did not reappear after drug withdrawal | – | – |
| NCCCC[C@H](N)C(=O)Nc1ccc(-n2nc(C(F)(F)F)cc2-c2ccc3c(ccc4ccccc43)c2)cc1 [AR-14] | – | – | completely disappeared during drug treatment and did not reappear after drug withdrawal | completely disappeared during drug treatment and did not reappear after drug withdrawal |
